Results of unrelated studies side by side (data: NIAID ChemDB).

Common to all: whole-cell or culture tests; agent: Hepatitis C virus; measure: EC50

ECn: concentration that inhibits the pathogen or its effect by n%. a–b is a range or a potency band. Rows are shuffled and stem from different studies. Blank or dashed fields: not listed here.

SMILES	strain or isolate	read by	setting	result
CC1C=C(F)C(Cn2c(C(=O)O)c(-c3ccc[nH]c3=O)c3c4occc4c(F)cc32)=CC1=O	-	replicon	-	<0.5 µM
c1cc2c(C3CCCCC3)c[nH]c2cn1	1b	replicon	-	<100 µM
COc1cccc(-c2cc(O[C@@H]3C[C@H]4C(=O)N[C@]5(C(=O)NS(=O)(=O)C6(C)CC6)C[C@H]5/C=C\CCCCN(C)C(=O)[C@@H]4C3)nc(OC)n2)c1	1b	luciferase / reporter gene / replicon	-	0.0005–0.199 µM
CCCc1nc(NCc2ccc(F)cc2)nc2ccc(-c3ccc(NC(=O)C(C)(C)N)cc3)nc12	-	replicon	-	<0.1 µM
COc1nc(O[C@@H]2C[C@H]3C(=O)N[C@]4(C(=O)NS(=O)(=O)C5CC5)C[C@H]4/C=C\CCCCCNC(=O)N3C2)cc(-c2ccccc2)n1	1b	luciferase / reporter gene / replicon	-	1–10 µM
Nc1ccccc1S(=O)(=O)NC(=O)c1c(-c2ccc[nH]c2=O)c2c3occc3c(F)cc2n1Cc1ccccc1F	-	replicon	-	0.5–1.5 µM
CS(=O)(=O)CCNc1nc(NCc2ccc(S(N)(=O)=O)cc2)nc2ccc(-c3ccc(C(=O)NC4CC4)cc3)nc12	-	replicon	-	0.1–0.25 µM
COc1cc(O[C@@H]2C[C@H]3C(=O)N[C@]4(C(=O)NS(=O)(=O)c5cccs5)C[C@H]4/C=C\CCCCN(C)C(=O)[C@@H]3C2)nc(-c2ccccc2)n1	1b	luciferase / reporter gene / replicon	-	1–10 µM
Fc1ccc(-c2cc(Cn3ccc4cc(-c5ccccc5F)nc-4c3)on2)c(C(F)(F)F)c1	1b	replicon	-	<100 µM
COc1nc(O[C@@H]2C[C@H]3C(=O)N[C@]4(C(=O)NS(=O)(=O)C5(C)CC5)C[C@H]4/C=C\CCCCN(C)C(=O)[C@@H]3C2)cc(-c2ccccc2)n1	1b	luciferase / reporter gene / replicon	-	0.2–0.99 µM
O=C(O)c1c(-c2ccc[nH]c2=O)c2c3occc3c(F)cc2n1Cc1nc2ccccc2[nH]c1=O	-	replicon	-	<0.5 µM
CC(Nc1nc(NCC(F)(F)F)c2nc(-c3ccc(F)cc3)ccc2n1)c1ccc(-n2cncn2)cc1	-	replicon	-	<0.1 µM
COc1cccc(-c2cc(O[C@@H]3C[C@H]4C(=O)N[C@]5(C(=O)NS(=O)(=O)C6CC6)C[C@H]5/C=C\CCCCN(C)C(=O)[C@@H]4C3)nc(OC)n2)c1	1b	luciferase / reporter gene / replicon	-	0.0005–0.199 µM
NS(=O)(=O)c1ccc(CNc2nc(NCC(F)(F)F)c3nc(-c4ccc(NC(=O)OCCN5CCCC5)cc4)ccc3n2)cc1	-	replicon	-	<0.1 µM
CN1CCCC/C=C\[C@@H]2C[C@@]2(C(=O)NS(=O)(=O)C2CC2)NC(=O)[C@@H]2C[C@@H](Oc3cc(-c4ccccc4)nc(-c4ccccc4)n3)C[C@H]2C1=O	1b	luciferase / reporter gene / replicon	-	0.2–0.99 µM
CCOc1nc(NCc2ccc(F)cc2)nc2ccc(-c3ccc(NC(=O)C4(O)CC4)cc3)nc12	-	replicon	-	<0.1 µM
COc1nc(O[C@@H]2C[C@H]3C(=O)N[C@]4(C(=O)NS(=O)(=O)C5(C)CC5)C[C@H]4/C=C\CCCCN(C)C(=O)[C@@H]3C2)cc(C(C)(C)C)n1	1b	luciferase / reporter gene / replicon	-	>10 µM
O=[N+]([O-])c1ccc(-c2ccc(Cl)cc2)c(COc2ccc(-c3[nH]c4cnccc4c3C3CCCCC3)cc2)c1	1b	replicon	-	<100 µM
CS(=O)(=O)NC(=O)c1c(-c2ccc[nH]c2=O)c2c3ccoc3ccc2n1Cc1ccc(F)cc1F	-	replicon	-	>1.5 µM
CCOc1nc(N)nc2c1ncn2[C@@H]1O[C@@H]2COP(=O)(OC(C)C)O[C@H]2[C@@]1(C)F	2a	replicon	154 d	3.36 µM
CC(C)(C)OC(=O)N(C(=O)OC(C)(C)C)c1cc(Cn2c(C(=O)NS(=O)(=O)C3CC3)c(-c3ccc[nH]c3=O)c3c4occc4c(F)cc32)c(F)cn1	-	replicon	-	<0.5 µM
COc1cc(O[C@@H]2C[C@H]3C(=O)N[C@]4(C(=O)NS(=O)(=O)C5(C)CC5)C[C@H]4/C=C\CCCCN(C)C(=O)[C@@H]3C2)nc(-c2ccccc2)n1	1b	luciferase / reporter gene / replicon	-	0.0005–0.199 µM
Fc1cccc(-c2cc3ccn(Cc4cn(-c5ccc(Cl)cc5)nn4)cc-3n2)c1F	1b	replicon	-	<100 µM
NC(=O)COc1ccc2c(c1)S(=O)(=O)N=C(c1c(O)c3cc(F)ccc3n(CCC3CC3)c1=O)N2	1a 34161	replicon	-	0.93 µM
CS(=O)(=O)NC(=O)c1c(-c2ccc[nH]c2=O)c2c3occc3c(F)cc2n1Cc1cc2ccccc2nc1Cl	-	replicon	-	<0.5 µM
CN(C)C(=O)Cn1ccc2c(C3CCCCC3)c(-c3ccccc3)nc-2c1	1b	replicon	-	<100 µM

Repeating the first 2 entries:

SMILES	strain or isolate	read by	setting	result
CC1C=C(F)C(Cn2c(C(=O)O)c(-c3ccc[nH]c3=O)c3c4occc4c(F)cc32)=CC1=O	-	replicon	-	<0.5 µM
c1cc2c(C3CCCCC3)c[nH]c2cn1	1b	replicon	-	<100 µM